Reference: US7026469B2, “Compositions and methods of double-targeting virus infections and cancer cells” (Wake Forest University School of Medicine, priority 2000, dated 2006)

What follows are molecules tested on HIV-1 (assay: HIV-1 syncytial plaque assay in CEM-SS cells). Settings: DS = ratio of TC50 for cytotoxicity to EC50 for anti-HIV activity.
Type: cell-based
Protocol: The inhibitory effects of PC lipids, non-PC lipid-AZT conjugates, and double-targeting PC lipid-AZT conjugate compounds of the invention on replication of HIV-1 virus in cells was examined using the plaque assay procedure described in Kucera et al. (1990, AIDS Research and Human Retroviruses, 6:491). CEM-SS cells were seeded at 50,000 cells per milliliter in RPMI growth medium as a monolayer in 96-well dishes, inoculated with 50 to 100 plaque forming units of HIV-1 and overlaid with serial dilutions of either PC lipid, non-PC lipid-AZT conjugate, or PC-lipid-AZT conjugate in RPMI-1640 growth medium supplemented with 10% fetal bovine serum. The structures of the tested compounds are described in Table 1. AZT and PC lipids were used as positive controls. […] The cytotoxicity of PC lipids, non-PC lipid-AZT conjugates and double targeting PC lipid-AZT conjugates was assessed using the procedure described in Kucera et al. (1990, AIDS Res. And Human Retrovir., 6:496, and 1998, Antiviral Chemistry and Chemotherapy, 9:160). [drawing 16]
In the plaque assay, HIV-1 syncytial plaques are seen as large, multicellular foci (10 to 25 nuclei/syncytium) that appear either brown and granular or clear. Because the number of HIV-1 syncytial plaques was correlated with reverse transcriptase (RT) and p24 core antigen activity in the HIV-1 infected cell overlay fluids, the syncytial plaque assay could be used to quantify the amount of infectious virus. Reverse transcriptase activity was assayed according to the procedure described by Poeisz et al. (1980, Proc. Natl. Acad. Sci. U.S.A. 77:7415). The activity of p24 core antigen induced by HIV-1 infection of CEM-SS cells was measured spectrophotometrically using the commercial Coulter enzyme immunoassay (EIA).

Row | Structure (SMILES) | Differential Selectivity
1 | CCCCCCCCCCCCSCC(COP(=O)([O-])OCC[N+](C)(C)C)OCCCCCCCCC(=O)OCC(=O)OC[C@H]1O[C@@H](n2cc(C)c(=O)[nH]c2=O)C[C@@H]1N=[N+]=[N-] (some centres unmarked) [INK-20] | 7,666
2 | CCCCCCCCCCCCSCC(COP(=O)([O-])OCC[N+](C)(C)C)OCCCCCCCCOCc1ccccc1 (centres unmarked) [INK-17, 3-dodecylthio-2-(8′-benzyloxyoctyloxy)propyl phosphocholine] | 327
3 | CCCCCCCCCCCCSCC(COP(=O)([O-])OCC[N+](C)(C)C)OCCCCCCCCO (centres unmarked) [INK-18, 3-dodeceylthio-2-(8′-hydroxyoctyloxy)propyl phosphophocholine] | 26
4 | CCCCCCCCCCCCSCC(COP(=O)([O-])OCC[N+](C)(C)C)OCCCCCCCCCCCCOCc1ccccc1 (centres unmarked) [INK-23] | >68
5 | CCCCCCCCCCCCSCC(COC(=O)CC(=O)OC[C@H]1O[C@@H](n2cc(C)c(=O)[nH]c2=O)C[C@@H]1N=[N+]=[N-])OC (some centres unmarked) [INK-19] | 1050
6 | CCCCCCCCCCCCSCC(COP(=O)([O-])OCC[N+](C)(C)C)OCCCCCCCCCCOC(=O)CC(=O)OC[C@H]1O[C@@H](n2cc(C)c(=O)[nH]c2=O)C[C@@H]1N=[N+]=[N-] (some centres unmarked) [INK-25] | 682
7 | CCCCCCCCCCCCSCC(COP(=O)([O-])OCC[N+](C)(C)C)OCCCCCCCCCCCCO (centres unmarked) [INK-24] | 207
8 | CCCCCCCCCCCCSCC(COP(=O)([O-])OCC[N+](C)(C)C)OCCCCCCCCCCO (centres unmarked) [INK-22] | >232
9 | CCCCCCCCCCCCSCC(COP(=O)(O)OCC1OC(n2cc(C)c(=O)[nH]c2=O)CC1N=[N+]=[N-])OCCCCCCCCCC (centres unmarked) [BM21-1290] | 1925
10 | CCCCCCCCCCCCSCC(COP(=O)([O-])OCC[N+](C)(C)C)OCCCCCCCCCCCCOC(=O)CC(=O)OC[C@H]1O[C@@H](n2cc(C)c(=O)[nH]c2=O)C[C@@H]1N=[N+]=[N-] (some centres unmarked) [INK-26] | 580
11 | CCCCCCCCCCCCSCC(COP(=O)([O-])OCC[N+](C)(C)C)OCCCCCCCCCCOCc1ccccc1 (centres unmarked) [INK-21] | 38
